The text below walks through data of paper PMC8255378.

The exact form of at least one protein or probe is not confirmed. At least one verdict was read from the data and is not stated in words by the source.

This data set has as its target SdiA (His-SdiA) (UniProt A6TB66). Description: EMSA. The note with it: 10 pmol SdiA, 2 or 4 uM C8-HSL (no apparent effect); 10 mM Tris-HCl pH 8.0, 50 mM KCl, 1 mM DTT, 0.1 mM EDTA, 2.5 mM MgCl2, 2% glycerol, 40 uL, 50 ng DNA, 37 C 30 min; 2% agarose or 6% native polyacrylamide gel; recombinant protein; residues 1-228; probe letters rebuilt from the primers and the genome.
“CTTCCATTCGGGTATGGTCGACTGTGAAACTATCTAACAACGGCATTCGTCACCTCCGGGAGTGAATTTTTTTAAAATAAAATGAACTCTTTGTTCAGCCGCGAGTCTCAGTATATGAAAGACGCGCATTTATTATCATCATCATCCCTGAATCAGAGATGAAAGTTTGGCCACAGTGATGTGGCCTTTTTCTTTTCCAGCGCTACGCGTGCCGCGCCAGCAGCGCCTCAAACGGCTCGCTGTCTTCAGCTTCCACTTTCTTCTGTCGCGCCACCGACGCGTCGCGCTCGGCGATAAAATCGTCTTCGCTCAGGATCTCCAGCGGCTCTT (double strand) [luxS promoter]”: the binding result is given as “binds”.

For the sequence “GAAAACTGTGCAGAGCCGGCAGCCGGACCACTCGGCTGAAATCTGAAATGCCTGGAAGGCACAACGGCTGCCAATCCGGTTCGTTATTTCGACATCGTTCAAAGGAAAACAGTATGAAAATCAAAACACTGGCAATGATTGTTGTGTCAGCCCTGTCACTGAGCTCCACGGCAGCTCTGGCCGATACCACCACGGTCAAC (double strand) [fimA promoter]”, the binding result is on record as “binds”.

With “TCAGCGCTAAGTTGACTGAATGCCGCTTCCACCAGCGAACGGCGGGTTTTTTCTTTTTGTTGTGCTCTTACGCCCATCACGATGTATGAATCCTTCCAATAGCCCTGCTGGCACTATACCAGAGATTAAAACTAATCGGTTTGCCCTGGATTGTGAATGATTGTTTACGAGCCGTTTCTGCTTTTATGCTGCAAAAAAGCACAACGATAATTGGGTTAAAGCGCAGCGAATGTTATCATCGTGTTTATTTTATGTATAAAACAGGTGAGTAATGCCATGTCACACTCTTGGGATTA (double strand) [ftsQ promoter]”, the binding result was “binds”.
